Compound potency records, mixed from different reports. Data source: NIAID ChemDB in PubChem.

All rows: tests in culture; organism: HIV-1; measure: EC50

ECn: concentration that inhibits the pathogen or its effect by n%. An empty or dashed field is not shown. Two numbers with a dash give a range or band. Rows are shuffled and stem from different studies.

structure | cell line | strain | read by | mutations | value
COCCNC(=O)c1c(COC)nc(Nc2ccc(C#N)cc2)nc1Nc1c(C)cc(/C=C/C#N)cc1C | MT4 CMV-EGFP | MDR | - | - | 0.000363 µM
CCOC(=O)c1ccc(N2C(=O)C=CC3C2c2ccccc2N3C)cc1 | MT-4 | LAI | cytopathic effect / MTT | - | >32 µM
O=CC(OC(=O)c1cc(O)c(O)c(O)c1Oc1cc2c(c(O)c1O)-c1c(cc(O)c(O)c1O)C(=O)OC(C(OC(=O)c1cc(O)c(O)c(O)c1)C(C=O)OC(=O)c1cc(O)c(O)c(O)c1)C(O)COC2=O)C(OC(=O)c1cc(O)c(O)c(O)c1)C1OC(=O)c2cc(O)c(O)c(O)c2-c2c(cc(O)c(O)c2O)C(=O)OCC1O | MT-4 | IIIB | cytopathic effect / MTT | - | >50 µg/mL
CCN1c2ncc(CCOc3ccc(/C=C(\C)C(=O)O)c4ccccc34)cc2C(=O)Nc2c(C)cc(Cl)nc21 | C8166 | WT | p24 | - | <0.1 µM
O=C1OC[C@H]2OC(OC(=O)c3cc(O)c(O)c(O)c3)C(OC(=O)c3cc(O)c(O)c(O)c3)C(OC(=O)c3cc(O)c(O)c(O)c3)[C@@H]2OC(=O)c2cc(O)c(O)c3c2C2C1=CC(=O)[C@@](O)(O3)C2(O)O | MT-4 | IIIB | cytopathic effect / MTT | - | >50 µg/mL
CC(C)C1=C2[C@H]3CC[C@@H]4[C@@]5(C)CC[C@H](OC(=O)C6C[C@@H](C(=O)O)C6(C)C)C(C)(C)[C@@H]5CC[C@@]4(C)[C@]3(C)CC[C@@]2(NC(=O)C(C)(C)NC(=O)CN2CCS(=O)(=O)CC2)CC1=O | MT-4 | NL4-3 | p24 | V7A | 0.01001–0.05 µM
COCc1nc(Nc2ccc(C#N)cc2)nc(Nc2c(C)cc(/C=C/C#N)cc2C)c1C(=O)NCc1cccs1 | MT4 CMV-EGFP | MDR | - | - | 0.38 µM
CC(C)C1=C2[C@H]3CC[C@@H]4[C@@]5(C)CC[C@H](OC(=O)C6C[C@@H](C(=O)O)C6(C)C)C(C)(C)[C@@H]5CC[C@@]4(C)[C@]3(C)CC[C@@]2(NC(=O)C2(NC(=O)c3ccc(F)cc3)CC2)CC1=O | MT-4 | NL4-3 | p24 | - | 0.00501–0.01 µM
Cc1cc2nc(-c3cccc([N+](=O)[O-])c3)ccc2c(C)c1C | MT-2 | NL4-3-Luc | luciferase | - | >189 µM
Cn1c2ccccc2c2c1cc(C#N)c(=O)n2-c1ccc([N+](=O)[O-])cc1 | MT-4 | D | cytopathic effect / MTT | RT-L100I K103N | 0.05 µM
O=C(OC[C@H]1O[C@@H](OC(=O)c2cc(O)c(O)c(O)c2)[C@H](OC(=O)c2cc(O)c(O)c(O)c2)[C@@H](O)[C@@H]1O)c1cc(O)c(O)c(O)c1 | MT-4 | IIIB | cytopathic effect / MTT | - | >50 µg/mL
CC(C)C1=C2[C@H]3CC[C@@H]4[C@@]5(C)CC[C@H](OC(=O)C6C[C@@H](C(=O)O)C6(C)C)C(C)(C)[C@@H]5CC[C@@]4(C)[C@]3(C)CC[C@@]2(NC(=O)C(C)(C)NC(=O)c2cc(C(C)C)[nH]n2)CC1=O | MT-4 | NL4-3 | p24 | V7A | <0.01 µM
CC(C)CNc1cc(S(=O)(=O)N(CC(C)C)C[C@@H](O)[C@H](Cc2ccccc2)NC(=O)O[C@H]2CO[C@H]3OCC[C@H]32)ccc1N | MT-4 | IIIB WT | GFP | - | 0.00562 µM
COCc1nc(Nc2ccc(C#N)cc2)nc(Nc2c(C)cc(/C=C/C#N)cc2C)c1C(=O)NCCc1ccccn1 | MT4 CMV-EGFP | K103N+Y101C | - | - | 0.0214 µM
CC(C)C1=C2[C@H]3CC[C@@H]4[C@@]5(C)CC[C@H](OC(=O)C6C[C@@H](C(=O)O)C6(C)C)C(C)(C)[C@@H]5CC[C@@]4(C)[C@]3(C)CC[C@@]2(NC(=O)C(C)(C)NC(=O)c2ccc3ccccc3n2)CC1=O | MT-4 | NL4-3 | p24 | - | 0.00501–0.01 µM
Cc1cc(C#N)cc(C)c1Oc1nc(Nc2ccc(C#N)cc2)nc(N)c1Br | TZM-bl | - | - | NL/103+348 | 0.0086 µM
CCCn1cncc1CCNc1cc(S(=O)(=O)N(CC(C)C)C[C@@H](O)[C@H](Cc2ccccc2)NC(=O)O[C@H]2CO[C@H]3OCC[C@H]32)ccc1N | MT-4 | IIIB WT | GFP | - | 0.631 µM
CCN1c2ncc(CCOc3ccc4cc(C(=O)NC(C)(C)C(=O)O)ccc4c3)cc2C(=O)N(C)c2cccnc21 | C8166 | WT | p24 | - | <0.1 µM
COc1ccccc1C(=O)Nc1ccc(Cl)c(C(=O)OC(C)C)c1 | CEM + CEM-SS | UC781-R (RT-Y181C) | cytopathic effect / XTT | RT-Y181C | 10.1 µM
Cc1nc(C)c(C(=O)NC(C)(C)C(=O)N[C@@]23CC[C@]4(C)[C@H](CC[C@@H]5[C@@]6(C)CC[C@H](OC(=O)C7C[C@@H](C(=O)O)C7(C)C)C(C)(C)[C@@H]6CC[C@]54C)C2=C(C(C)C)C(=O)C3)s1 | MT-4 | NL4-3 | p24 | V7A | 0.01001–0.05 µM
O=C(OC1OC2COC(=O)c3cc(Oc4c(C(=O)OC5OC6COC(=O)c7cc(O)c(O)c(O)c7-c7c(cc(O)c(O)c7O)C(=O)OC6C(OC(=O)c6cc(O)c(O)c(O)c6)C5OC(=O)c5cc(O)c(O)c(O)c5)cc(O)c(O)c4O)c(O)c(O)c3-c3c(cc(O)c(O)c3O)C(=O)OC(C2O)C1O)c1cc(O)c(O)c(O)c1 | MT-4 | IIIB | cytopathic effect / MTT | - | >50 µg/mL
Nc1ccn([C@H]2CC[C@@H](CO)O2)c(=O)n1 | - | NL4-3 | β-galactosidase | - | 0.43 µM
COCc1nc(Nc2ccc(C#N)cc2)nc(Nc2c(C)cc(/C=C/C#N)cc2C)c1C(=O)N(C)CCN(C)C | MT4 CMV-EGFP | MDR | - | - | 3.63 µM
CC(C)C1=C2[C@H]3CC[C@@H]4[C@@]5(C)CC[C@H](OC(=O)C6C[C@@H](C(=O)O)C6(C)C)C(C)(C)[C@@H]5CC[C@@]4(C)[C@]3(C)CC[C@@]2(NC(=O)C(C)(C)NC(=O)Cc2ccc(Cl)cc2)CC1=O | MT-4 | NL4-3 | p24 | - | <0.005 µM
O=C1CCCN1[C@H]1C[C@@H](c2cccc([N+](=O)[O-])c2)Nc2ccc(I)cc21 | MT-2 | NL4-3 | MTT | - | >50 µM
CC(C)=CCOc1cc(NC(=S)c2ccoc2C)ccc1Cl | CEM + CEM-SS | UC10/costatolide-resistant (RT K103N) | cytopathic effect / XTT | RT-K103N | 0.9 µM
COCc1nc(Nc2ccc(C#N)cc2)nc(Oc2c(C)cc(/C=C(\C)C#N)cc2C)c1C(=O)NCc1ccncc1 | MT4 CMV-EGFP | K103N + Y181C | - | - | 0.0759 µM
CC(C)CN(C[C@@H](O)[C@H](Cc1ccccc1)NC(=O)O[C@H]1CO[C@H]2OCC[C@H]21)S(=O)(=O)c1ccc(N)c(N(C)c2ccccc2)c1 | MT-4 | IIIB WT | GFP | - | 0.0871 µM
CCN1c2ncc(CCOc3ccc(/C=C(\C)C(=O)O)c4ccccc34)cc2C(=O)N(C)c2ccc(C)nc21 | C8166 | - | p24 | RT-K103N Y181C | <0.1 µM
CC(C)CN(C[C@@H](O)[C@H](Cc1ccccc1)NC(=O)O[C@H]1CO[C@H]2OCC[C@H]21)S(=O)(=O)c1ccc(N)c(NCc2ccccc2)c1 | MT-4 | IIIB WT | GFP | - | 0.0038 µM
Cc1cc(C)c2c(c1)N[C@H](c1cccc(N)c1)C[C@@H]2N1CCCC1=O | MT-2 | NL4-3 | MTT | - | 88.86 µM
Cc1ccc(C(=O)NC(C)(C)C(=O)N[C@@]23CC[C@]4(C)[C@H](CC[C@@H]5[C@@]6(C)CC[C@H](OC(=O)C7C[C@@H](C(=O)O)C7(C)C)C(C)(C)[C@@H]6CC[C@]54C)C2=C(C(C)C)C(=O)C3)cn1 | MT-4 | NL4-3 | p24 | V7A | 0.01001–0.05 µM
O=C(O[C@@H]1Cc2c(O)cc(O)cc2O[C@@H]1c1cc(O)c(O)c(O)c1)c1cc(O)c(O)c(O)c1 | MT-4 | IIIB | cytopathic effect / MTT | - | >25 µg/mL
CC(C)=CCOc1cc(NC(=S)c2ccsc2C)ccc1Cl | CEM + CEM-SS | 4XAZT+Y181C | cytopathic effect / XTT | - | 0.01 µM
N#CC1=CC2C(c3ccccc3N2CCN2CCCC2)N(c2ccc([N+](=O)[O-])cc2)C1=O | MT-4 | LAI | cytopathic effect / MTT | - | <1 µM
O=C1O[C@@H]2O[C@@H]3COC(=O)c4cc(O)c(O)c(O)c4-c4c(cc(O)c(O)c4O)C(=O)O[C@H]3[C@H](OC(=O)c3cc(O)c(O)c(O)c3)[C@H]2OC(=O)c2cc(O)c(O)c(O)c2Oc2cc(cc(O)c2O)C(=O)O[C@@H]2O[C@@H]3COC(=O)c4cc(O)c(O)c(O)c4-c4c(cc(O)c(O)c4O)C(=O)O[C@H]3[C@H](OC(=O)c3cc(O)c(O)c(O)c3)[C@H]2OC(=O)c2cc(O)c(O)c(O)c2Oc2c(O)cc1cc2O | MT-4 | IIIB | cytopathic effect / MTT | - | >50 µg/mL
CCN1c2ncc(CCOc3ccc(C(=O)O)c4c3CCN(S(=O)(=O)N(C)C)C4)cc2C(=O)N(C)c2cccnc21 | C8166 | WT | p24 | - | <0.1 µM
O=C(O)c1cc(O)c(O)c(O)c1 | MT-4 | IIIB | cytopathic effect / MTT | - | >6.3 µg/mL
O=C1CCCN1[C@H]1C[C@@H](c2cccc([N+](=O)[O-])c2)Nc2ccccc21 | MT-2 | NL4-3 | MTT | - | >50 µM
CN1c2ccccc2C2C1C=CC(=O)N2c1ccc(-c2noc(=O)n2C)cc1 | MT-4 | LAI | cytopathic effect / MTT | - | 1–32 µM
COCc1nc(Nc2ccc(C#N)cc2)nc(Nc2c(C)cc(/C=C/C#N)cc2C)c1C(=O)N1CCCC(C(N)=O)C1 | MT4 CMV-EGFP | IIIB | - | - | 0.0537 µM
CC(C)C1=C2[C@H]3CC[C@@H]4[C@@]5(C)CC[C@H](OC(=O)C6C[C@@H](C(=O)O)C6(C)C)C(C)(C)[C@@H]5CC[C@@]4(C)[C@]3(C)CC[C@@]2(NC(=O)C2(NC(=O)c3cccnc3N3CCOCC3)CCC2)CC1=O | MT-4 | NL4-3 | p24 | V7A | 0.01001–0.05 µM
O=CC(OC(=O)c1cc(O)c(O)c(O)c1Oc1cc(C(=O)O)cc(O)c1O)C(OC(=O)c1cc(O)c(O)c(O)c1)C1OC(=O)c2cc(O)c(O)c(O)c2-c2c(cc(O)c(O)c2O)C(=O)OCC1O | MT-4 | IIIB | cytopathic effect / MTT | - | >50 µg/mL
COc1ccc2nc(-c3cccc([N+](=O)[O-])c3)ccc2c1 | MT-2 | NL4-3-Luc | luciferase | - | 8.97 µM
C=CCN1c2ccccc2C2C1C=C(C#N)C(=O)N2c1ccc(C#N)cc1 | MT-4 | LAI | cytopathic effect / MTT | - | 1–32 µM
COCc1nc(Nc2ccc(C#N)cc2)nc(Nc2c(C)cc(/C=C/C#N)cc2C)c1C(=O)NCC1CCCO1 | MT4 CMV-EGFP | K103N + Y181C | - | - | 0.0295 µM
C=C1CN(S(=O)(=O)c2ccc(C)cc2)CCCN(Cc2ccccc2)CCCN(S(=O)(=O)c2ccc(C)cc2)C1 | SupT1 | RF | cytopathic effect | - | 1.8 µM
CN1c2ccccc2C2C1C=C(C#N)C(=O)N2c1ccc(Br)cc1 | MT-4 | LAI | cytopathic effect / MTT | - | 1–32 µM

3 of the rows above, restated:

structure,cell line,strain,read by,mutations,value
CC(C)CN(C[C@@H](O)[C@H](Cc1ccccc1)NC(=O)O[C@H]1CO[C@H]2OCC[C@H]21)S(=O)(=O)c1ccc(N)c(NCc2ccccc2)c1,MT-4,IIIB WT,GFP,-,0.0038 µM
CC(C)C1=C2[C@H]3CC[C@@H]4[C@@]5(C)CC[C@H](OC(=O)C6C[C@@H](C(=O)O)C6(C)C)C(C)(C)[C@@H]5CC[C@@]4(C)[C@]3(C)CC[C@@]2(NC(=O)C2(NC(=O)c3cccnc3N3CCOCC3)CCC2)CC1=O,MT-4,NL4-3,p24,V7A,0.01001–0.05 µM
CC(C)C1=C2[C@H]3CC[C@@H]4[C@@]5(C)CC[C@H](OC(=O)C6C[C@@H](C(=O)O)C6(C)C)C(C)(C)[C@@H]5CC[C@@]4(C)[C@]3(C)CC[C@@]2(NC(=O)C(C)(C)NC(=O)c2ccc3ccccc3n2)CC1=O,MT-4,NL4-3,p24,-,0.00501–0.01 µM